A mixed list of measured activities; the numbers were collected in NIAID ChemDB.

Shared fields: target-level tests; agent: Toxoplasma gondii; protein: Dihydrofolate reductase; read-out: IC50

ICn: concentration for n% inhibition. Neighbouring rows are from separate reports.

SMILES,result
CC(Cc1coc2nc(N)nc(N)c12)c1ccc(-c2ccccc2)cc1,7 µM
CC(Cc1c[nH]c2nc(N)nc(N)c12)c1ccccc1,0.138 µM
COc1cccc2c1CCc1cc3c(N)nc(N)nc3nc1-2,0.15 µM
Nc1nc(N)c2cc(COC(=O)c3ccccc3)ccc2n1,0.099 µM
CC(Cc1c[nH]c2nc(N)nc(N)c12)c1ccc2ccccc2c1,0.0148 µM
Nc1nc(N)c2cc(COC(=O)c3ccc4ccccc4c3)ccc2n1,0.51 µM
COc1cc(CCc2c[nH]c3nc(N)nc(N)c23)cc(OC)c1OC,0.037 µM
CC(Cc1coc2nc(N)nc(N)c12)c1ccc(Cl)cc1Cl,2.9 µM
CC1(C)CN2CCC1c1nc(N)nc(N)c12,46 µM
Nc1nc(N)c2cc(COC(=O)c3cccc4ccccc34)ccc2n1,0.1 µM
Nc1nc(N)c2c(n1)-c1ccsc1CC2,101 µM
Nc1nc(N)c2cc3c(nc2n1)-c1ccccc1CC3,0.18 µM
CC1(C)C2Cc3c(N)nc(N)nc3C1C2,39 µM
COc1ccc2c(c1)-c1cc3c(N)nc(N)nc3nc1CC2,0.091 µM
CC(Cc1coc2nc(N)nc(N)c12)c1ccc2ccccc2c1,11 µM
Nc1nc(N)c2cc(COC(=O)c3ccsc3)ccc2n1,0.33 µM
COc1ccc2c(c1)-c1nc3nc(N)nc(N)c3cc1CC2,0.57 µM

The last 2 rows once more:

SMILES | result
Nc1nc(N)c2cc(COC(=O)c3ccsc3)ccc2n1 | 0.33 µM
COc1ccc2c(c1)-c1nc3nc(N)nc(N)c3cc1CC2 | 0.57 µM